Test results as given in PMC9603813, “Genome-Wide Analysis Reveals that PhoP Regulates Pathogenicity in Riemerella anatipestifer”.

Target: T1, His6-PhoP (Riemerella anatipestifer RA-YM) (UniProt E4TAE7)
T1 sequence (looked up, limits assumed): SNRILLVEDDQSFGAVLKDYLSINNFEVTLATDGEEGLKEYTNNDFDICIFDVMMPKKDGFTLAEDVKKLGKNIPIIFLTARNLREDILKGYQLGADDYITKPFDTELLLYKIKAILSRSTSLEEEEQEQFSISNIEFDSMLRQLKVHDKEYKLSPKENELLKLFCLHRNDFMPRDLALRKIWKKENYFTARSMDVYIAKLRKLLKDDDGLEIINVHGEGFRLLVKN
Assay: EMSA
Conditions: recombinant protein, protein details: His6 (pET-28a), label: 5' biotin on strand 1

[1] = phosphorylated by acetyl phosphate

Sequence	binding result [1]	binding result (unphosphorylated)
GTTATCAAATTTTTATGATAAAATTAGATGCTGTT (double strand) [dnaG motif probe]	binds	binds
TAATTTAACAAACTTTAACACAAATTTAGCTTAAT (double strand) [moxR motif probe]	binds	binds

Construct, isoform or probe ends are uncertain for at least one entry. At least one verdict rests on a figure or table, not on a statement of the authors. Where a protein sequence is shown, tags need not be part of it.
